Pooled drug test results. Numbers come from NIAID ChemDB, via PubChem.

Common to all: whole-cell or culture tests; organism: Mycobacterium tuberculosis

Neighbouring rows are from separate reports. Inhibition is in % at the dose shown (toxicity tests: loss of growth or viability). ECn: concentration that inhibits the pathogen or its effect by n%. MIC50, MIC90 and the like: level of inhibition, or share of isolates inhibited. An empty or dashed field is not shown. MIC bound comes from a single tested concentration.

SMILES	read-out	dose	method	strain	changes	value
CC1=C(C(=O)Nc2cc(C)ccc2C)C(c2ccccc2O)C(C(=O)Nc2cc(C)ccc2C)=C(C)N1	MIC			H37Rv		>12.5 µg/mL
Fc1ccccc1-c1c(C(c2ccccc2)n2ccnc2)cnn1-c1ccccc1	MIC50			ATCC 35828 (pyrazinamide-resistant)		≥100 µM
CCOC(=O)c1[nH]c(=O)c2ccccc2c1O	MIC bound		BACTEC	H37Rv		>12.5 µg/mL
COc1c(C(C)=O)cc([N+](=O)[O-])c2nc(C(C)C)ccc12	MIC			H37Rv		>6.25 µg/mL
CCCCCCCCCN1C(=O)CC(SCCNC(=O)c2ccc([N+](=O)[O-])cc2)C1=O	MIC			H37Rv		≤20 µg/mL
C=C1C(=O)O[C@@H]2C[C@@]3(C)C[C@@H](O)[C@H](O)C(=C)[C@@H]3C[C@H]12	inhibition	6.25 µg/mL	resazurin	H37Rv		15%
CCCCCCCCCN1C(=O)CC(C)(SCCN)C1=O	MIC			H37Ra		≤20 µg/mL
CC(C)N=c1cc2n(-c3ccc(Cl)cc3)c3ccccc3nc-2cc1Nc1ccc(Cl)cc1	MIC		broth dilution / resazurin	MDR16		1 µg/mL
NC[C@H]1O[C@H](O[C@H]2[C@H](O)[C@@H](O[C@H]3O[C@H](CO)[C@@H](O)[C@H](N)[C@H]3O)[C@H](N)C[C@@H]2N)[C@H](O)[C@@H](O)[C@@H]1O	MIC			Isolate 1		4 µg/mL
COc1cc2c(c(OC)c1OC)C(=O)/C(=C/c1ccccc1)O2	MIC		BACTEC	H37Rv		>12.5 µg/mL
CC1=C(C(=O)Nc2ccc([N+](=O)[O-])cc2)C(c2ccccc2Cl)C(C(=O)Nc2ccc([N+](=O)[O-])cc2)=C(C)N1	inhibition	2.5 µg/mL		H37Rv		95%
O=C1C=CC(=C(c2ccc(O)cc2)c2c(Cl)c(Cl)c(Cl)c(Cl)c2C(=O)O)C=C1	MIC bound		BACTEC	H37Rv		>12.5 µg/mL
CCCCOc1ccc(NC(=S)Nc2ccc(OCCN(CC)CC)cc2)cc1	MIC			H37RV #80		16.6 µg/mL
Cc1ccc(NC(=S)SCc2ccc(Cl)c(Cl)c2)cc1C	MIC bound		BACTEC	H37Rv		≤128 µg/mL
C/C=C(/C)C(=O)OC1CC(C)(C)CC2C3=CCC4C5(C)CC[C@H](O)C(C)(C)C5CC[C@@]4(C)[C@]3(C)CC[C@@]12C(=O)O	MIC			H37Rv (rifampicin-resistant)		50 µg/mL
Cc1c(N=Nc2ccc(Br)cc2)c(-c2ccccc2)nn1C(=S)S	inhibition	12.5 µg/mL	BACTEC	H37Rv		99%
CCCCCCCCCN1C(=O)CC(SCCNC(=O)c2ccc(C(C)(C)C)cc2)C1=O	MIC			H37Ra		≤20 µg/mL
O=C(/C=C/c1ccc(I)cc1)c1ccccc1O	MIC			H37Rv		>12.5 µg/mL
O=C(O)c1cnccn1	MIC			T6790		480 µg/mL
Fc1ccc(-c2c(C(c3ccccc3)n3ccnc3)cnn2-c2ccc(F)cc2F)cc1	MIC90			ATCC 35820 (streptomycin-resistant)		≥100 µM
COc1ccccc1NC(=O)C1=C(C)NC(C)=C(C(=O)Nc2ccccc2OC)C1c1cccc([N+](=O)[O-])c1	EC50			H37Rv		<2.5 µg/mL
COc1ccc(-c2oc3ccccc3c(=O)c2O)cc1	MIC			H37Rv		>12.5 µg/mL
C=C(C)/C=C/[C@]12C[C@H](C)[C@H]3CC[C@](C)(N)[C@@H](CC[C@H]1C)[C@@H]32	inhibition	8 µg/mL		H37Rv		99%
CC1COc2c(N3CCN(C)CC3)c(F)cc3c(=O)c(C(=O)O)cn1c23	MIC			099-3		1 µg/mL
CCSC1OC(C(COC(C)=O)OC(C)=O)C(OC(C)=O)C1NC(C)=S	MIC bound		BACTEC	H37Rv		>12.5 µg/mL
Fc1ccc(-c2c(C(c3ccccc3)n3ccnc3)cnn2-c2ccc(F)cc2)cc1	MIC50			ATCC 35820 (streptomycin-resistant)		≥100 µM
CO[C@H]1/C=C/O[C@@]2(C)Oc3c(C)c(O)c4c(O)c(c(/C=N/N5CCN(C)CC5)c(O)c4c3C2=O)NC(=O)/C(C)=C\C=C\[C@H](C)[C@H](O)[C@@H](C)[C@@H](O)[C@@H](C)[C@H](OC(C)=O)[C@@H]1C	MIC			H37Rv		1 µg/mL
O=C(N/N=C/c1cccc2ccccc12)c1cccnc1	inhibition	12.5 µg/mL	BACTEC	H37Rv		25%
C[C@@H]1CN(c2c(F)c(N)c3c(=O)c(C(=O)O)cn(C4CC4)c3c2F)C[C@H](C)N1	MIC			Isolate 15		0.13 µg/mL
COc1c(N2CC[C@@H](C(C)(C)N)C2)c(F)cc2c(=O)c3c(=O)[nH]sc3n(C3CC3)c12	MIC			Isoniazid resistant isolate 15		0.06 µg/mL
CCCCOc1c(C(C)=O)cc(N)c2nccc(CC)c12	MIC			H37Rv		>6.25 µg/mL
CO[C@H]1/C=C/O[C@@]2(C)Oc3c(C)c(O)c4c(O)c(c5c(c4c3C2=O)NC2(CCN(CC(C)C)CC2)N=5)=NC(=O)/C(C)=C\C=C\[C@H](C)[C@H](O)[C@@H](C)[C@@H](O)[C@@H](C)[C@H](OC(C)=O)[C@@H]1C	MIC90			30 isolates		8 µg/mL
CO[C@H]1/C=C/O[C@@]2(C)Oc3c(C)c(O)c4c(O)c(c(/C=N/N5CCN(C)CC5)c(O)c4c3C2=O)NC(=O)/C(C)=C\C=C\[C@H](C)[C@H](O)[C@@H](C)[C@@H](O)[C@@H](C)[C@H](OC(C)=O)[C@@H]1C	MIC90			ATCC 35822 (isoniazid-resistant)		1 µM
O=C(O)c1cccc([N+](=O)[O-])c1C(=O)Nc1ncc([N+](=O)[O-])s1	MIC bound		BACTEC	H37Rv		>12.5 µg/mL
CC1=CC(=O)N(c2ccc(N3CCCCC3)cc2)C1=O	MIC			H37Rv		≤20 µg/mL
CC1=C(C(=O)Nc2ccc(Cl)cc2)C(c2cccc([N+](=O)[O-])c2)C(C(=O)Nc2cccc(C)c2C)=C(C)N1	MIC			H37Rv		>6.25 µg/mL
O=C1OCCN1/N=C/c1ccc([N+](=O)[O-])o1	MIC bound		BACTEC	H37Rv		>12.5 µg/mL
NNC(=O)c1ccncc1	MIC			Isolate C		0.062 µg/mL
CC1=C(C(=O)Nc2cccc([N+](=O)[O-])c2)C(c2ccc(Cl)cc2Cl)C(C(=O)Nc2cccc([N+](=O)[O-])c2)=C(C)N1	EC50			H37Rv		<2.5 µg/mL
NCC[C@H](O)C(=O)N[C@@H]1C[C@H](N)[C@@H](O[C@H]2O[C@H](CN)[C@@H](O)[C@H](O)[C@H]2O)[C@H](O)[C@H]1O[C@H]1O[C@H](CO)[C@@H](O)[C@H](N)[C@H]1O	MIC			A4B (amikacin-resistant)		64 µg/mL
NCC[C@H](O)C(=O)N[C@@H]1C[C@H](N)[C@@H](O[C@H]2O[C@H](CN)[C@@H](O)[C@H](O)[C@H]2O)[C@H](O)[C@H]1O[C@H]1O[C@H](CO)[C@@H](O)[C@H](N)[C@H]1O	MIC			7R		2.5 µg/mL
CCN(CC)CCOc1ccc(NC(=S)Nc2ccc(OCC(C)C)cc2)cc1	MIC			H37RV #164		31.3 µg/mL
COc1c(C(C)=O)cc(N)c2ncccc12	MIC			H37Rv		>6.25 µg/mL
NC(=O)c1cnccn1	MIC			DHMH4319 niacin-positive		>2048 µg/mL
COc1ccc(-c2cc(=O)c3ccccc3o2)cc1	inhibition	12.5 µg/mL		H37Rv		26%
S=C(c1cccs1)N1CCN(c2cccc(Cl)c2)CC1	inhibition	6.25 µg/mL	resazurin			5%
CC1=C(C(=O)Nc2cccc(Cl)c2)C(c2ccc(Cl)cc2)C(C(=O)Nc2cccc(Cl)c2)=C(C)N1	MIC			H37Rv		>12.5 µg/mL
CCCCCCCCOc1c(C(C)=O)cc([N+](=O)[O-])c2nccc(CC)c12	inhibition	6.25 µg/mL		H37Rv		2%
COC(=O)C1=C(C)N(c2ccc(OC)cc2)C(C)=C(C(=O)OC)C1c1ccc(OC)c(O)c1	MIC			H37Rv		>6.25 µg/mL
Cc1nc2nnc(N)n2nc1C	MIC bound		BACTEC	H37Rv		>12.5 µg/mL
CC1=C(C(=O)Nc2ccccc2Cl)C(c2ccccc2S)C(C(=O)Nc2ccccc2Cl)=C(C)N1	inhibition	2.5 µg/mL		H37Rv		10%
Fc1ccc(-n2ncc(C(c3ccccc3)n3ccnc3)c2-c2ccccc2)cc1	MIC90			ATCC 35837 (ethambutol-resistant)		≥100 µM
CC1=C(C(=O)Nc2ccc(Cl)cc2)C(c2cccc([N+](=O)[O-])c2)C(C(=O)Nc2ccc(Cl)cc2)=C(C)N1	MIC			H37Rv		>12.5 µg/mL
CNc1ccccc1C(=O)NN=C1c2ccccc2-c2ccccc21	MIC bound		BACTEC	H37Rv		>12.5 µg/mL
CC1COc2c(N3CCN(C)CC3)c(F)cc3c(=O)c(C(=O)O)cn1c23	MIC50			ATCC 35828 (pyrazinamide-resistant)		0.9 µM
Nc1cc(Cl)cc2[nH]c(=O)c3cc(Cl)ccc3c12	MIC			H37Rv		>12.5 µg/mL
CO[C@H]1/C=C/O[C@@]2(C)Oc3c(C)c(O)c4c(O)c(c(/C=N/N5CCN(C)CC5)c(O)c4c3C2=O)NC(=O)/C(C)=C\C=C\[C@H](C)[C@H](O)[C@@H](C)[C@@H](O)[C@@H](C)[C@H](OC(C)=O)[C@@H]1C	MIC			H37Rv (viomycin-resistant)		2.5 µg/mL
O=C(NC(=S)c1cccc2ccccc12)NS(=O)(=O)c1ccc(Cl)cc1	inhibition	6.25 µg/mL	resazurin	H37Rv		-23%
NNC(=O)c1ccncc1	MIC			Isolate 13		32 µg/mL
COC(=O)[C@H]1[C@H](O)[C@@H](C)[C@@H](O)[C@](C)(O)/C=C(\C)C2=C3C(=C(C)C(=O)c4c(O)c(c(C)c(OC(C)=O)c43)NC(=O)/C(C)=C/C=C\[C@@H](C)C(O)[C@@H](C)[C@H]1O)OCO2	MIC			EMB-R		6.4 µg/mL
C[C@H]1COc2c(N3CCN(C)CC3)c(F)cc3c(=O)c(C(=O)O)cn1c23	MIC		resazurin	Clinical isolate 19 RP	INH RIF EMB resistant	0.25 µg/mL
CC1=C(C(=O)Nc2ccc(F)c(Cl)c2)C(c2ccccc2)C(C(=O)Nc2ccc(F)c(Cl)c2)=C(C)N1	MIC			H37Rv		>6.25 µg/mL
O=C(O)c1ccc(O)c(C(=O)/C=C/c2cccc(I)c2)c1	MIC			H37Rv		>12.5 µg/mL
CCCCCCOc1c(C(C)=O)cc(N)c2nccc(CC)c12	MIC			H37Rv		>6.25 µg/mL
Clc1ccc(-c2c(C(c3ccccc3)n3ccnc3)cnn2-c2ccc(Cl)cc2)cc1	MIC90			ATCC 35828 (pyrazinamide-resistant)		≥100 µM
CN[C@@H]1[C@H](O[C@H]2[C@H](O[C@H]3[C@H](O)[C@@H](O)[C@H](N=C(N)N)[C@@H](O)[C@@H]3N=C(N)N)O[C@@H](C)[C@]2(O)C=O)O[C@@H](CO)[C@H](O)[C@H]1O	MIC			H37RV #164		3.9 µg/mL
O=C(N=Nc1c(O)[nH]c2ccccc12)c1ccccc1O	MIC		BACTEC	H37Rv		≥12.5 µg/mL
CO[C@H]1/C=C/O[C@@]2(C)Oc3c(C)c(O)c4c(O)c(c5c(c4c3C2=O)NC2(CCN(CC(C)C)CC2)N=5)=NC(=O)/C(C)=C\C=C\[C@H](C)[C@H](O)[C@@H](C)[C@@H](O)[C@@H](C)[C@H](OC(C)=O)[C@@H]1C	MIC			31 (rifampicin-resistant)		>2 µg/mL
CC(C)=Cc1cc(CCC/C(C)=C/Cc2c(O)cc(C)c(C(=O)O)c2O)co1	MIC bound		BACTEC	H37Rv		>12.5 µg/mL
CC1=C(C(=O)Nc2ccc(F)c(Cl)c2)C(c2cccc(Cl)c2)C(C(=O)Nc2ccc(F)c(Cl)c2)=C(C)N1	MIC			H37Rv		>6.25 µg/mL
O=CNc1ccc2nc3ccc(NC=O)cc3[n+](-c3ccccc3)c2c1.[Cl-]	inhibition	12.5 µg/mL	BACTEC	H37Rv		86%
Fc1ccc(-n2ncc(C(c3ccccc3)n3ccnc3)c2-c2ccccc2)c(F)c1	MIC50			ATCC 35837 (ethambutol-resistant)		≥100 µM
O=C1OC2OC3OC(=O)C4C3CC2C14	inhibition	12.5 µg/mL	BACTEC	H37Rv		6%
O=C(/C=C/c1cccc(I)c1)c1ccccc1O	MIC			H37Rv		31.5 µg/mL

Again, the opening 11 rows:

SMILES | read-out | dose | method | strain | changes | value
CC1=C(C(=O)Nc2cc(C)ccc2C)C(c2ccccc2O)C(C(=O)Nc2cc(C)ccc2C)=C(C)N1 | MIC |  |  | H37Rv |  | >12.5 µg/mL
Fc1ccccc1-c1c(C(c2ccccc2)n2ccnc2)cnn1-c1ccccc1 | MIC50 |  |  | ATCC 35828 (pyrazinamide-resistant) |  | ≥100 µM
CCOC(=O)c1[nH]c(=O)c2ccccc2c1O | MIC bound |  | BACTEC | H37Rv |  | >12.5 µg/mL
COc1c(C(C)=O)cc([N+](=O)[O-])c2nc(C(C)C)ccc12 | MIC |  |  | H37Rv |  | >6.25 µg/mL
CCCCCCCCCN1C(=O)CC(SCCNC(=O)c2ccc([N+](=O)[O-])cc2)C1=O | MIC |  |  | H37Rv |  | ≤20 µg/mL
C=C1C(=O)O[C@@H]2C[C@@]3(C)C[C@@H](O)[C@H](O)C(=C)[C@@H]3C[C@H]12 | inhibition | 6.25 µg/mL | resazurin | H37Rv |  | 15%
CCCCCCCCCN1C(=O)CC(C)(SCCN)C1=O | MIC |  |  | H37Ra |  | ≤20 µg/mL
CC(C)N=c1cc2n(-c3ccc(Cl)cc3)c3ccccc3nc-2cc1Nc1ccc(Cl)cc1 | MIC |  | broth dilution / resazurin | MDR16 |  | 1 µg/mL
NC[C@H]1O[C@H](O[C@H]2[C@H](O)[C@@H](O[C@H]3O[C@H](CO)[C@@H](O)[C@H](N)[C@H]3O)[C@H](N)C[C@@H]2N)[C@H](O)[C@@H](O)[C@@H]1O | MIC |  |  | Isolate 1 |  | 4 µg/mL
COc1cc2c(c(OC)c1OC)C(=O)/C(=C/c1ccccc1)O2 | MIC |  | BACTEC | H37Rv |  | >12.5 µg/mL
CC1=C(C(=O)Nc2ccc([N+](=O)[O-])cc2)C(c2ccccc2Cl)C(C(=O)Nc2ccc([N+](=O)[O-])cc2)=C(C)N1 | inhibition | 2.5 µg/mL |  | H37Rv |  | 95%